Assay results reported in publication PMC2987829, “Autoacetylation of the Ralstonia solanacearum Effector PopP2 Targets a Lysine Residue Essential for RRS1-R-Mediated Immunity in Arabidopsis” (PLoS Pathogens, 2010).
Numbering of substitutions follows the chain as printed. Names and notes keep the numbering of the source.

B1: PopP2-K383R-CFP (natural protein)
chain: MKVSSANAGVPASSADNTSARPSQTNADTTPLGRRRRAPDDAPGSPPARRQRQDSPEDSAQTMFRRAGMTSLPPSPATSEHVPLLDNRPTLERMGVDHPLPGRTWYETGHTTASLADRTSTASAAQVASSSRSAGPATAARPQPTRTSAGQQATVGRLRTQVTGFLSGALGKLQALSAQNMDPELAQFRVLDVDRAIMPLLIVAENARNPGLNLVPLHMDMAEDEEVRTQPPMAGSRHIAEFVASARPGRYRAVIDDGSHTRAADIRKDASGTSVIVVDPLRKEKDESAYVDYADNVNMEFGEHAKCAFIPVDIQKSFFDCRILSLSLALKMHDKDDAFAAFHETLRNGGDPSHHVSRAQQTEELGATLVLDGAPLVDARMMRHGQAASSVSRYLGNHPEQSTVPVNKRNETLGERTTRHLVKRKVRNRADSEGRVTSGETKEITFSNSVEQKRIALLNRAASYVNSAPPPVVMRMAKLLQDSLLDTN
B2: PopP2-C321A-CFP (natural protein)
chain: B1 chain with C321A, R383K

Molecular target: T1, RRS1-R-YFPv (Arabidopsis thaliana (Nd-1 ecotype), UniProt E1B328 1-1378)
T1 construct: not shown: YFPv, C-terminal, kept
T1 sequence: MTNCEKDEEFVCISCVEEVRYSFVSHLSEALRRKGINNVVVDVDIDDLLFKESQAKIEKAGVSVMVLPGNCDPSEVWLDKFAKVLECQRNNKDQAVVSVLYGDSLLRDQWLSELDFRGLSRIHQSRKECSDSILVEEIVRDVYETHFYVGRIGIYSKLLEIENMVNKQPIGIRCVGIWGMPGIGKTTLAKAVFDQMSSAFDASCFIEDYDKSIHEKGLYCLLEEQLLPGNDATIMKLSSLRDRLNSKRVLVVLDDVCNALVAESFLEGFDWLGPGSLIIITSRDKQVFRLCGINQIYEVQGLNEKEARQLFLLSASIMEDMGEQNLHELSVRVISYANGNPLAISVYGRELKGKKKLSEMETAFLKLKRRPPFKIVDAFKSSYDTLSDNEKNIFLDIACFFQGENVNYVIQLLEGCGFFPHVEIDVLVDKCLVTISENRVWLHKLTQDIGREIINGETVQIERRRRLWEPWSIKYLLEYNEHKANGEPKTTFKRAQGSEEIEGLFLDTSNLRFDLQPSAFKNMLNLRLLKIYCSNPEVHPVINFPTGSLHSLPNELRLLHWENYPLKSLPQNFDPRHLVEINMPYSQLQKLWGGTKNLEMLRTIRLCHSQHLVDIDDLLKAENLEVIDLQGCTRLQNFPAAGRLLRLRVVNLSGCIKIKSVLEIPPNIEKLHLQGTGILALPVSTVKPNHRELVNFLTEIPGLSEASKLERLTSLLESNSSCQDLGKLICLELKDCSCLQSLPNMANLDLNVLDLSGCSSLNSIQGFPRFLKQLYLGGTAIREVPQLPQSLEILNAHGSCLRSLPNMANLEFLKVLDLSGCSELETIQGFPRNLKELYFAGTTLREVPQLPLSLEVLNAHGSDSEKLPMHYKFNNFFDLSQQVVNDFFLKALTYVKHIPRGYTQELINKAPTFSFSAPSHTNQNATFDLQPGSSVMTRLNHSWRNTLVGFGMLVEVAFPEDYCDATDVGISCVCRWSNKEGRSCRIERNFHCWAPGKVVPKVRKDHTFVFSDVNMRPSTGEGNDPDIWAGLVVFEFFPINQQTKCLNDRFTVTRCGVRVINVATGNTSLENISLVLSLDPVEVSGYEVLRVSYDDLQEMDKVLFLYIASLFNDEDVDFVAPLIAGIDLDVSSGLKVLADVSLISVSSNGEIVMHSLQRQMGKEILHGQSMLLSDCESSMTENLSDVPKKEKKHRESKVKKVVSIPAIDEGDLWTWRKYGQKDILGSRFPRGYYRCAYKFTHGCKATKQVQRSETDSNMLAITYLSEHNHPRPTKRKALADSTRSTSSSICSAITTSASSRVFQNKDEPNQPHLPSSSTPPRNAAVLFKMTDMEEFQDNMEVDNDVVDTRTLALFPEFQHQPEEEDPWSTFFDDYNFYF
Experiment: FRET or BRET

Binder | FRET efficiency E | decrease of donor lifetime (delta t = tauD - tauDA) | mean CFP donor lifetime with acceptor (tau)
B1 | 12.6% | 298 ps | 2.06 ns
B2 | 15% | 354 ps | 2.02 ns
